{"source": "patent US8088729B2", "about": "(priority 2005, dated 2012)", "key": {"[1]": {"test_system": "influenza A (H5N1) hybrid virus", "assay": "H5N1 neutral red (NR) dye uptake assay, MDCK cells"}, "[2]": {"test_system": "influenza A (H5N1) hybrid virus", "assay": "H5N1 CPE inhibition test, visual (microscopic), MDCK cells", "details": "Visual (CPE) Assay, 72 h"}}, "data": [{"molecule": "NC(=O)c1ncn([C@@H]2O[C@H](CO)[C@@H](O)[C@H]2O)n1", "note": "[Ribavirin, reference compound]", "values": [{"measurement": "EC50", "setting": "[1]", "value": 1.8, "unit": "µg/mL"}, {"measurement": "EC50", "setting": "[2]", "value": 1.8, "unit": "µg/mL"}]}]}
